Experimental data taken from patent US5364842A (priority 1993, dated 1994).

Protein sequences, listed by entry. Tags and fused reporters are not part of them.
UniProt Q02294, whole entry, looked up: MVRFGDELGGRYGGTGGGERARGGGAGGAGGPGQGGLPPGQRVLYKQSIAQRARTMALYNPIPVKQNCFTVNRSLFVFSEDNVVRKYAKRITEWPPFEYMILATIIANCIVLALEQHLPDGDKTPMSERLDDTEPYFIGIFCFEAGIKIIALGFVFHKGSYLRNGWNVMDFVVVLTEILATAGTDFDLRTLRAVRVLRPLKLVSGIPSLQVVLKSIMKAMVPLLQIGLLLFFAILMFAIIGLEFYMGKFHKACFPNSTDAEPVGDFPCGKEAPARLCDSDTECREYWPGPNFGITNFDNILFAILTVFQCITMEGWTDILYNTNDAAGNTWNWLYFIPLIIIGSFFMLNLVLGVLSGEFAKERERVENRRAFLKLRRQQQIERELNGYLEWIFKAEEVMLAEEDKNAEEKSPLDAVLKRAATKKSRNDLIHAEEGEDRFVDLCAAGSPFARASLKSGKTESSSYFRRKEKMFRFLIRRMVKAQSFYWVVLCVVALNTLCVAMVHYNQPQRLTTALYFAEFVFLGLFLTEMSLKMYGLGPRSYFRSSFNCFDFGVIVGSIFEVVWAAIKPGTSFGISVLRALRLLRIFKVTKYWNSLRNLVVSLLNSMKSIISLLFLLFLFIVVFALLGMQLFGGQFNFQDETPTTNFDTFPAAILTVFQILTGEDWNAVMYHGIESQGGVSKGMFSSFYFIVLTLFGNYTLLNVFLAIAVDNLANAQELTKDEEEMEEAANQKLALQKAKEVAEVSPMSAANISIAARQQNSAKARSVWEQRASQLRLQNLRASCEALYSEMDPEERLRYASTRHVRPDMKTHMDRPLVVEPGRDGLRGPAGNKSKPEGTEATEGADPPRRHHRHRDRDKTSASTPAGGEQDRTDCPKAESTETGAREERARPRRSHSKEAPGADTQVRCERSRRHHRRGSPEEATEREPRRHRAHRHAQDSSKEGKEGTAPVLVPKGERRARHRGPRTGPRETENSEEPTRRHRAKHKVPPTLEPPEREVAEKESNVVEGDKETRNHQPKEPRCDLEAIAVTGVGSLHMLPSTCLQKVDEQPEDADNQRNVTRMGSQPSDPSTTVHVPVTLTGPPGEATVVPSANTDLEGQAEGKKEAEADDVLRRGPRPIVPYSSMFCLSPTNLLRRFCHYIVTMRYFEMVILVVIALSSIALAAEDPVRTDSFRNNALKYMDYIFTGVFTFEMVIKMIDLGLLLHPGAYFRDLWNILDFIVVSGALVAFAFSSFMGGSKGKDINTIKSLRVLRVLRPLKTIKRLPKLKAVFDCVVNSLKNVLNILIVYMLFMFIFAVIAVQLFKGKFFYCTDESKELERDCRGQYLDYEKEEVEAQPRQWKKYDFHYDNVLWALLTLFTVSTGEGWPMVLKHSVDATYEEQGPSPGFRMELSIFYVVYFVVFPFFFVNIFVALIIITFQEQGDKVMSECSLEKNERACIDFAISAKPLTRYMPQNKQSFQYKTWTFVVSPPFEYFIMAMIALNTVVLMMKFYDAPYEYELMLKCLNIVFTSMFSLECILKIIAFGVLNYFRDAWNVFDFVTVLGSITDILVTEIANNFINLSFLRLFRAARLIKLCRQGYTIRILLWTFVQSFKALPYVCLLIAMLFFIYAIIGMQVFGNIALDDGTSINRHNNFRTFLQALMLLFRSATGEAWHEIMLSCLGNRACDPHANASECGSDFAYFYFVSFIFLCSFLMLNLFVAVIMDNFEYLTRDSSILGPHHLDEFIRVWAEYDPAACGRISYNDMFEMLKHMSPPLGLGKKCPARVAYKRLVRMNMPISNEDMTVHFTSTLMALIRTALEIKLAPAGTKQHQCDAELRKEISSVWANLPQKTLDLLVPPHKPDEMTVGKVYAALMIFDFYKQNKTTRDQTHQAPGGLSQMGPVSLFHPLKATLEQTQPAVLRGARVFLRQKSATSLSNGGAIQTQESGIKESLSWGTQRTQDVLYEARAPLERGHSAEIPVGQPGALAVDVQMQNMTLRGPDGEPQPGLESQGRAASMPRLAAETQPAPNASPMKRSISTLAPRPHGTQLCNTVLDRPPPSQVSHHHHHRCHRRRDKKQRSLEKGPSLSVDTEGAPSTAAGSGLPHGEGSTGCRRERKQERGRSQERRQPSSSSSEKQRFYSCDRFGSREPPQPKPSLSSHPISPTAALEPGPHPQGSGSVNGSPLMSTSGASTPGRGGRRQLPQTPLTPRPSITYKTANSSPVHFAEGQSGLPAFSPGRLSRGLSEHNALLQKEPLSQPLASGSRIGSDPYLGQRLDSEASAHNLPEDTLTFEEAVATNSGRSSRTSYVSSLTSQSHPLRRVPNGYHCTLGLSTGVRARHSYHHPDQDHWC

Biological target: MVIIA (SNX-111) binding site (site 1) (Rattus norvegicus, UniProt Q02294)
Conditions: read-out: IC50 (nM), competition of 125I-MVIIA (SNX-111) binding; rat brain synaptosomal membranes

CSCC[C@@H]1NC(=O)[C@H]([C@@H](C)O)NC(=O)[C@H](CCCCN)NC(=O)[C@H](CCCNC(=N)N)NC(=O)[C@@H]2CSSC[C@@H]3NC(=O)[C@H](CO)NC(=O)CNC(=O)[C@H](CO)NC(=O)[C@H](CSSC[C@H](N)C(=O)N[C@@H](CCCCN)C(=O)NCC(=O)N[C@@H](CCCCN)C(=O)NCC(=O)N[C@@H](C)C(=O)N4C[C@H](O)C[C@H]4C(=O)N2)NC(=O)[C@H](CSSC[C@@H](C(N)=O)NC(=O)[C@H](CCCCN)NC(=O)CNC(=O)[C@H](CCCNC(=N)N)NC(=O)[C@H](CCCNC(=N)N)NC(=O)CNC3=O)NC(=O)[C@H](CC(=O)O)NC(=O)[C@H](Cc2ccc(O)cc2)NC1=O
IC50: 0.153 nM
